“And” between values parts separate entries of the source, which are not always exact repeats. Equal values may be shown once.
System: SARS-CoV-2
Type: cell-based, SARS-CoV-2 B1.1 lineage
Details: ratio CC50 / IC50

O=c1cccc2n1CC1CC2CN(C(=S)NC2CCCCC2)C1 (stereo not shown) [Compound 23]
S.I.: >1.1

Clc1ccc2c(NCC34CCCN3CCC4)ccnc2c1 [Compound 11]
S.I.: 20 and 20.1

Clc1ccc2c(NC[C@@H]3CCCN4CCCC[C@H]34)ccnc2c1 [Compound 10]
S.I.: 20

Clc1ccc2c(c1)nc(Cn1nnc3ccccc31)n2CC[C@@H]1CCCN2CCCC[C@H]12 [Compound 20]
S.I.: 2.8

Cc1ccc(Nc2cc3nc4ccccc4n(-c4ccc(C)cc4)c-3cc2=NCC2CCCN3CCCCC23)cc1 (stereo not shown) [Compound 2]
S.I.: 1.9

CC(=O)/C=C(/C)Nc1cccc2c3c([nH]c12)CCCC3 [Compound 25]
S.I.: >1.1

CC(=NNC(N)=S)c1ccc2c(c1)nc(Cc1ccccc1)n2C[C@@H]1CCCN2CCCC[C@H]12 [Compound 14, 2-(1-{2-Benzyl-1-[((1S,9aR)-octahydro-2H-quinolizin-1-yl)methyl]-1H-benzo[d]imidazol-5-yl}-ethylidene)hydrazine-1-carbothioamide]
S.I.: 5.7

c1ccc(Nc2cc3nc4ccccc4n(-c4ccccc4)c-3cc2=NCCCCC23CCCCN2CCCC3)cc1 [Compound 3]
S.I.: 2.6

Cc1ccc2c(c1)nc(Cn1nnc3ccccc31)n2CC[C@@H]1CCCN2CCCC[C@H]12 [Compound 19]
S.I.: 5

CCN(CC)CCCn1c(Cc2ccccc2)nc2cc(C(C)=NNC(N)=S)ccc21 [Compound 13]
S.I.: 4.8

CCN(CC)CCCC(C)Nc1ccnc2cc(Cl)ccc12 (stereo not shown) [CQ, chloroquine, reference compound]
S.I.: 11 and 11.3

CCN(CC)CCCn1c(Cn2nnc3ccccc32)nc2cc(C(C)=NNC(N)=S)ccc21 [Compound 15, 2-(1-{2-[(1H-Benzo[d][1,2, 3]triazol-1-yl)methyl]-1-[3-(N,N-diethylamino)propyl]-1H-benzo-[d]imidazol-5-yl}ethylidene)hydrazine-1-carbothioamide]
S.I.: 4.5

CCN(CC)CCCn1c(Cn2nnc3ccccc32)nc2cc(Cl)ccc21 [Compound 18]
S.I.: 3.8

Source: publication PMC11676875, “In Vitro Screening of an In-House Library of Structurally Distinct Chemotypes Towards the Identification of Novel SARS-CoV-2 Inhibitors” (Pharmaceuticals, 2024)
